Experimental data: PubChem BioAssay AID449762 (Southern Research Specialized Biocontainment Screening …, 2010)
Inconclusive results are not listed.

Tested on: M. tuberculosis H37Rv growth inhibition, 7H9 media
Test: M. tuberculosis growth inhibition, HTS (AID 449762);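 note: bacterial growth assessed after seven days of incubation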
Conditions: measured here: IC90 growth inhibition

O=[N+]([O-])c1cc([N+](=O)[O-])c(-c2cnn(-c3ccccc3)c2)c([N+](=O)[O-])c1
IC90: 12.8 µM
